Results on two substances are retold here after publication PMC11063343, “Cellugyrin (synaptogyrin-2) dependent pathways are used by bacterial cytolethal distending toxin and SARS-CoV-2 virus to gain cell entry” (2024).

Assay [1] concerns the target Cdt subunit CdtC (UniProt O87122).
The target in assay [2] is m1, O87120;O87121;O87122.

Substance “cellugyrin Middle outer loop (MOL) peptide R101A; F111A” returned a response in assay [1] of 130 RU.
Substance “cellugyrin Middle outer loop (MOL) peptide Y103A; F111A” had a response in assay [2] of 22 RU.
